The record followed here is US9708336B2, “Metallo-beta-lactamase inhibitors” (priority 2014, dated 2017).

By UniProt entry, the sequences of proteins in these tests, tags left out. Residues count along the entry.
UniProt P52699, 19-246 limits assumed: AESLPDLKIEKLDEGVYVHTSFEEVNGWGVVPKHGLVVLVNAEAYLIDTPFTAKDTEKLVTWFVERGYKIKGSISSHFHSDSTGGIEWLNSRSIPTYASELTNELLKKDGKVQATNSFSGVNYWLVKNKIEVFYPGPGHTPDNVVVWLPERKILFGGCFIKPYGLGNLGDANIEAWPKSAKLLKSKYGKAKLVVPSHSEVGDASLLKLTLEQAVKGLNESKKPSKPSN

The target of assay [1] is VIM-1 (Pseudomonas aeruginosa (strain ATCC 15692 / DSM 22644 / CIP 104116 / JCM 14847 / LMG 12228 / 1C / PRS 101 / PAO1), UniProt A0A0F7KYQ8). The assay can be described thus: Enzyme activity: determination of IC50, fluorescence assay with CCF2-FA substrate (VIM-1). The conditions noted are these: read-out: VIM-1 IC50, VIM-1 enzyme. It counts as biochemical.
In assay [2] the target is IMP-1 (Serratia marcescens, UniProt P52699). To be noted: read-out: IMP-1 IC50; IMP-1 enzyme, CCF2-FA substrate.
For assay [3], the target named is NDM-1 (Klebsiella pneumoniae, UniProt C7C422). The conditions noted are these: read-out: NDM-1 IC50; NDM-1 enzyme, CCF2-FA substrate.
Assay [4] has as its system Klebsiella pneumoniae expressing VIM-1 (IHMA599644). The experiment in a line: Antibiotic potentiation activity: synergistic concentration (MITC95) with imipenem, OD600 growth. It counts as cell-based. To be noted: Klebsiella pneumoniae IHMA599644 (VIM-1), 95% growth inhibition.
Assay [5] deals with Escherichia coli expressing NDM-1 (CLB30016). The assay is described as above. The assay is classed as cell-based. The conditions noted are these: (CLB30016, NDM-1), 95% growth inhibition.
Assay [6] deals with Serratia marcescens expressing IMP-1 (CL5741). The description is as above. To be noted: Serratia marcescens CL5741 (IMP-1), 95% growth inhibition. The assay is classed as cell-based.

As a reminder, the IC50 is the concentration that gives 50% inhibition. Turning to `Nc1nc2c(-c3ccc(CC4CCNCC4)c(S(N)(=O)=O)c3-c3nn[nH]n3)cccc2s1`, the IC50 in assay [1] was determined as 2.23 nM; in assay [2], 19.2 nM; in assay [3], 0.728 nM. For the same compound, the “Klebsiella pneumoniae MITC95” value in assay [4] stood at 1.563 µM. Moreover, the “Escherichia coli MITC95” value in assay [5] is 0.7813 µM. Further, the “Serratia marcescens MITC95” value in assay [6] came to 3.125 µM.

As for `CC(C)(O)C1CCN(c2ccc(-c3cccc(S(N)(=O)=O)c3-c3nn[nH]n3)cn2)C1` (centres unmarked), the half-maximal inhibitory concentration (IC50) was 356 nM in assay [1], 68.5 nM in assay [2] and 9.13 nM in assay [3]. Besides, the “Klebsiella pneumoniae MITC95” value in assay [4] is more than 200 µM. Moreover, the “Escherichia coli MITC95” value in assay [5] is 4.688 µM.
